Data as given in publication PMC9603178, “Human Claudin-Derived Peptides Block the Membrane Fusion Process of Zika Virus and Are Broad Flavivirus Inhibitors” (Microbiology Spectrum, 2022).

Tested on: ZIKV
Experiment: RNase A protection assay
Design: species or system Zika virus
Conditions: then RNase A 1 h

| Substance | viral RNA upon RNase A treatment (1% detergent for 1 h, control) | amount of viral RNA after RNase A treatment (10 μM for 1 h, RT-qPCR) |
| --- | --- | --- |
| Triton X-100 [reference compound] | degraded |  |
| MANAGLQLLGFILAFLGW [CL1.1] |  | identical to the untreated virus |

Where no end group is shown, it is not given here.
